# Experimental data published in PMC9614474 (Plant Physiology, 2022).
# Amino acid sequences for entries named in this document (tags omitted). Residues count along the entry.
# UniProt G4N906, 17-162 limits assumed: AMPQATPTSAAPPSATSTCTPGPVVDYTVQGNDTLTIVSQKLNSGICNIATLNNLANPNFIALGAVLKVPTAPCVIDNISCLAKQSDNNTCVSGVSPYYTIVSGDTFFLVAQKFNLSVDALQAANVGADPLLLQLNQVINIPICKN
# Molecular target: MoSlp1 (Pyricularia oryzae, UniProt G4N906)
# Assay: ligand-induced polymerization, centrifugation pellet with methylene blue
# Conditions: 100 µM protein, 1 mM oligomer, room temperature, overnight
structure (smiles),measurement,value
"CC(=O)N[C@H]1[C@H](O[C@H]2[C@H](O)[C@@H](NC(C)=O)[C@H](O[C@H]3[C@H](O)[C@@H](NC(C)=O)C(O)O[C@@H]3CO)O[C@@H]2CO)O[C@H](CO)[C@@H](O[C@@H]2O[C@H](CO)[C@@H](O[C@@H]3O[C@H](CO)[C@@H](O[C@@H]4O[C@H](CO)[C@@H](O)[C@H](O)[C@H]4NC(C)=O)[C@H](O)[C@H]3NC(C)=O)[C@H](O)[C@H]2NC(C)=O)[C@@H]1O (stereo partly shown) [Chi6, hexaacetylchitohexaose]","ligand-induced polymerization, centrifugation pellet with methylene blue",clear pellets were formed upon incubation of these proteins with chitin
